Results of unrelated studies side by side (data: NIAID ChemDB).

Common to all: whole-cell or culture tests; organism: HIV-1

Rows are shuffled and stem from different studies. ECn: concentration that inhibits the pathogen or its effect by n%. Fold resistance: result on the changed form divided by that on wild type. Blank or dashed fields: not listed here.

smiles,changes,cells,measure,strain,method,value
COc1ccc(S(=O)(=O)N(CC2CCCC2)C[C@@H](O)CN(CCc2ccccc2)C(C)=O)cc1,,CEM,EC90,IIIB,p24,1 µM
Nc1nc(NC2CC2)c2ncn([C@H]3C=C[C@@H](CO)C3)c2n1,,PBMC,EC90,NL4-3 WT,p24,2.5 µM
CC(C)CN(CCC(O)CN1CSC[C@H]1C(=O)NC(C)(C)C)S(=O)(=O)c1ccccc1,,CEM,EC90,IIIB,p24,1 µM
O=C1Nc2ccc(Cl)cc2[C@@](/C=C/C2CC2)(C(F)(F)F)N1,RT-K103N V108I,,EC90,,,~0.095 µM
Cc1cc(S(N)(=O)=O)ccc1NC(=O)COc1ccc(Cl)cc1C(=O)c1cc(F)cc(C(F)(F)F)c1,RT-P236L,HeLa + HELA CD4+,fold resistance,HXB2,β-galactosidase,~1
Cc1ccc(C2CC2)c(-c2ccc3c(c2C)CCCO3)c1[C@H](OC(C)(C)C)C(=O)O,NRTI/NNRTI resistant NLAY351717,MT-4,fold resistance,NL4-3,luminescence,1
CC(C)C1=C2[C@H]3CC[C@@H]4[C@@]5(C)CC[C@H](OC(=O)[C@H]6C[C@@H](C(=O)O)C6(C)C)C(C)(C)[C@@H]5CC[C@@]4(C)[C@]3(C)CC[C@@]2(CCNCc2cnn3cccnc23)CC1=O,,MT-2,EC50,92HT599,p24 / ELISA,<1 µM
CC(=O)N1CCc2nc(C(=O)NCc3ccc(F)cc3)c(O)c(=O)n2CC1,,MT-4,EC95,,p24,<50 µM
CC(C)C1=C2[C@H]3CC[C@@H]4[C@@]5(C)CC[C@H](OC(=O)[C@H]6C[C@@H](C(=O)O)C6(C)C)C(C)(C)[C@@H]5CC[C@@]4(C)[C@]3(C)CC[C@@]2(CC(=O)NCC2(N)CC2)CC1=O,,MT-2,EC50,92HT599,p24 / ELISA,<1 µM
Cc1cc(C#N)cc(C(=O)c2cc(Cl)ccc2OCC(=O)Nc2cnc(S(N)(=O)=O)cc2C)c1,RT-V106I,HeLa + HELA CD4+,fold resistance,HXB2,β-galactosidase,~1
O=C(NCc1ccc(F)cc1)c1nc2n(c(=O)c1O)CCN(Cc1cn[nH]n1)C2,,MT-4,EC95,,p24,<50 µM
COc1ccnc2[nH]cc(C(=O)C(=O)N3C4CCC3CN(C(=O)c3ccccc3)C4)c12,,TZM-bl,EC90,PVO,luciferase,9.4 µM
Cc1cc(OCCCS(N)(=O)=O)ccc1NC(=O)COc1ccc(Cl)cc1C(=O)c1cc(F)cc(C(F)(F)F)c1,RT-P225H,HeLa + HELA CD4+,fold resistance,HXB2,β-galactosidase,~1
CC(C)C1=C2[C@H]3CC[C@@H]4[C@@]5(C)CC[C@H](OC(=O)[C@H]6C[C@@H](C(=O)O)C6(C)C)C(C)(C)[C@@H]5CC[C@@]4(C)[C@]3(C)CC[C@@]2(CC(=O)NC[C@@H]2CCCNC2)CC1=O,,MT-2,EC50,92HT599,p24 / ELISA,<1 µM
COc1ccnc2[nH]cc(C(=O)C(=O)N3C4CCCC3CN(C(=O)c3ccccc3)C4)c12,,TZM-bl,EC90,ZM214,luciferase,38 µM
O=C1Nc2ccc(F)c(F)c2[C@@](C#CC2CC2)(C(F)(F)F)N1,RT-Y188L,,EC90,,,~0.075 µM
Nc1nc(=O)n([C@H]2C=C[C@@H](CO)O2)cc1F,RT-M41L D67N K70R T215Y K219Q,MT-4,EC90,XM-AZT-resistant,p24,1.6 µM
Cc1cc(C#N)cc(C(=O)c2cc(Cl)ccc2OCC(=O)Nc2ccc(S(N)(=O)=O)cc2C)c1,RT-V106I Y181C,HeLa + HELA CD4+,fold resistance,HXB2,β-galactosidase,~1
COc1ccc(S(=O)(=O)N(CC(C)C)C[C@@H](O)CCN(CC2CCCC2)S(=O)(=O)CC2CCOC2)cc1,,CEM,EC90,IIIB,p24,1 µM
CC(C)[C@H](NC(=O)OCc1ccccn1)C(=O)N[C@@H](Cc1ccccc1)[C@@H](O)C[C@H](Cc1ccccc1)NC(=O)OCc1cccnc1,PR-V82T,MT-4,EC95,NL4-3,p24,1.5 µM
CC1(C)c2nc(C(=O)NCc3ccc(F)cc3)c(O)c(=O)n2CCN1Cc1cnco1,,MT-4,EC95,,p24,<1 µM
CC(C)C1=C2[C@H]3CC[C@@H]4[C@@]5(C)CC[C@H](OC(=O)[C@H]6C[C@@H](C(=O)O)C6(C)C)C(C)(C)[C@@H]5CC[C@@]4(C)[C@]3(C)CC[C@@]2([C@@H](O)CN(CCN(C)C)Cc2ccccc2Cl)CC1=O,,MT-2,EC50,92HT599,p24 / ELISA,<1 µM
CCC(=O)c1ccc(F)c([C@@H]2C[C@@H]2NC(=O)Nc2ccc(C#N)cn2)c1O,NNRTI-resistant (RT Y181I),TZM-bl,fold resistance,LAI,β-galactosidase / luminescence,≥100
CCc1cc(C#N)cc(C(=O)c2cc(Cl)ccc2OCC(=O)Nc2ccc(S(N)(=O)=O)cc2C)c1,RT-Y181C,HeLa + HELA CD4+,fold resistance,HXB2,β-galactosidase,~1
CC(C)=CCOc1cc(NC(=S)c2ccsc2C)ccc1Cl,RT-V106I,CEM + CEM-SS,fold resistance,NL4-3,p24,13
CC(C)C1=C2[C@H]3CC[C@@H]4[C@@]5(C)CC[C@H](OC(=O)[C@H]6C[C@@H](C(=O)O)C6(C)C)C(C)(C)[C@@H]5CC[C@@]4(C)[C@]3(C)CC[C@@]2([C@@H](O)CNC(=O)C2CCCCC2)CC1=O,,MT-2,EC50,92HT599,p24 / ELISA,<1 µM
Cc1cc(S(N)(=O)=O)ccc1NC(=O)COc1ccc(Cl)cc1C(=O)c1cc(Cl)cc(C#N)c1,RT-Y181C,HeLa + HELA CD4+,fold resistance,HXB2,β-galactosidase,~1
CC(C)C1=C2[C@H]3CC[C@@H]4[C@@]5(C)CC[C@H](OC(=O)[C@H]6C[C@@H](C(=O)O)C6(C)C)C(C)(C)[C@@H]5CC[C@@]4(C)[C@]3(C)CC[C@@]2(CC(=O)NCC(C)(C)NC(=O)c2nc3ccccc3[nH]2)CC1=O,,MT-2,EC50,92HT599,p24 / ELISA,<1 µM
CC(=O)N(C)C1COCCn2c1nc(C(=O)NCc1ccc(F)cc1)c(O)c2=O,,MT-4,EC95,,p24,<1 µM
CC(C)C1=C2[C@H]3CC[C@@H]4[C@@]5(C)CC[C@H](OC(=O)[C@H]6C[C@@H](C(=O)O)C6(C)C)C(C)(C)[C@@H]5CC[C@@]4(C)[C@]3(C)CC[C@@]2(CC(=O)NCc2ccc(N)nc2)CC1=O,,MT-2,EC50,92HT599,p24 / ELISA,<1 µM
Cc1ccc(C2CC2)c(-c2cc(F)c3c(c2C)CCCO3)c1[C@H](OC1CC1)C(=O)O,INSTI-resistant (IN-N155H),MT-4,fold resistance,NL4-3,luminescence,1
CC(C)(C)c1cc(CS(=O)(=O)N(CC2CCCC2)C[C@@H](O)CN(CCc2ccccc2)C(=O)c2ccccc2)no1,,CEM,EC90,IIIB,p24,1 µM
CC(C)C1=C2[C@H]3CC[C@@H]4[C@@]5(C)CC[C@H](OC(=O)[C@H]6C[C@@H](C(=O)O)C6(C)C)C(C)(C)[C@@H]5CC[C@@]4(C)[C@]3(C)CC[C@@]2([C@@H](O)CNCc2ccc(Cl)cc2O[C@H]2CCOC2)CC1=O,,MT-2,EC50,92HT599,p24 / ELISA,<1 µM
Cc1cc(C)cc(C(=O)c2cc(Cl)ccc2OCC(=O)Nc2ccc(S(N)(=O)=O)cc2C)c1,RT-K103N P225H,HeLa + HELA CD4+,fold resistance,HXB2,β-galactosidase,~1
Cc1ccc(C)n1-c1ccc(C(=O)O)c(O)c1,,MT-2,EC90,SF2 X4R5 CLADE B,p24,5.92 µM
Cc1cc2cn[nH]c2cc1NC(=O)COc1ccc(Cl)cc1C(=O)c1cccc(C#N)c1,RT-Y181C,HeLa + HELA CD4+,fold resistance,HXB2,β-galactosidase,~1
CC1c2nc(C(=O)NCc3ccc(F)cc3)c(O)c(=O)n2CCN1Cc1cocn1,,MT-4,EC95,,p24,<1 µM

For reference, 5 entries again:

{"smiles": "CC(=O)N(C)C1COCCn2c1nc(C(=O)NCc1ccc(F)cc1)c(O)c2=O", "cells": "MT-4", "measure": "EC95", "method": "p24", "value": "<1 µM"}
{"smiles": "Cc1cc(C#N)cc(C(=O)c2cc(Cl)ccc2OCC(=O)Nc2cnc(S(N)(=O)=O)cc2C)c1", "changes": "RT-V106I", "cells": "HeLa + HELA CD4+", "measure": "fold resistance", "strain": "HXB2", "method": "β-galactosidase", "value": "~1"}
{"smiles": "CC(C)C1=C2[C@H]3CC[C@@H]4[C@@]5(C)CC[C@H](OC(=O)[C@H]6C[C@@H](C(=O)O)C6(C)C)C(C)(C)[C@@H]5CC[C@@]4(C)[C@]3(C)CC[C@@]2(CC(=O)NCC(C)(C)NC(=O)c2nc3ccccc3[nH]2)CC1=O", "cells": "MT-2", "measure": "EC50", "strain": "92HT599", "method": "p24 / ELISA", "value": "<1 µM"}
{"smiles": "CC(C)C1=C2[C@H]3CC[C@@H]4[C@@]5(C)CC[C@H](OC(=O)[C@H]6C[C@@H](C(=O)O)C6(C)C)C(C)(C)[C@@H]5CC[C@@]4(C)[C@]3(C)CC[C@@]2([C@@H](O)CNC(=O)C2CCCCC2)CC1=O", "cells": "MT-2", "measure": "EC50", "strain": "92HT599", "method": "p24 / ELISA", "value": "<1 µM"}
{"smiles": "Cc1cc(OCCCS(N)(=O)=O)ccc1NC(=O)COc1ccc(Cl)cc1C(=O)c1cc(F)cc(C(F)(F)F)c1", "changes": "RT-P225H", "cells": "HeLa + HELA CD4+", "measure": "fold resistance", "strain": "HXB2", "method": "β-galactosidase", "value": "~1"}